Laboratory results published in patent US10978218B2, “Hydrogel network” (dated 2021).

Biological target: αHL mutant 2N (E111N/K147N) (Staphylococcus aureus, UniProt P09616, E137N/K173N)

Substance: γ-cyclodextrin
- residence time of γCD within the pore (+20 mV, average±S.D., n=562): 146 ± 4 ms
- block of the amplitude of the open pore current (γCD 50 μM (trans), αHL 2N (cis), n=562 events, two independent experiments): 64%
